Compound potency records, mixed from different reports. Data source: NIAID ChemDB in PubChem.

All rows: tests on isolated targets; agent: HIV-1; protein: Reverse transcriptase; method: nucleotide incorporation; read-out: IC50

a–b is a range or a potency band.

SMILES | strain | mutations | result
COc1ccc2c(c1)C=CC(C#N)N2C(=O)OCC(C)C |  | RT-P236L | 4.7 µM
CC(C)Nc1cccnc1N1CCN(C(=O)c2cc3ccc(F)cc3[nH]2)CC1 |  |  | <100 µM
CC(C)=CCOc1cc(NC(=S)c2ccoc2C)ccc1Cl |  | RT-W229F | 0.035 µM
O=C(O)CSc1nc(-c2cccs2)c2c(n1)-c1ccccc1CC2 |  |  | 17.4 µM
CC(C)Nc1cccnc1OCCN(C)C(=O)c1cc2ccccc2[nH]1 |  |  | <100 µM
Cc1ccc(C(=O)Nc2ccc(S(=O)(=O)O)c3cc(S(=O)(=O)O)cc(S(=O)(=O)O)c23)cc1NC(=O)Nc1cc(C(=O)Nc2ccc(S(=O)(=O)O)c3cc(S(=O)(=O)O)cc(S(=O)(=O)O)c23)ccc1C | IIIB |  | 45 µg/mL
CCNc1ccccc1N1CCN(C(=O)c2cc3cc(OC)ccc3[nH]2)CC1 |  |  | <100 µM
COC(=O)N1c2ccc(OC)cc2C=CC1C#N |  |  | >50 µM
O=C(NCCc1ccccc1)Nc1ccc(Cl)cc1 |  |  | >10 µg/mL
Cn1cc(NC(=O)c2cc(NC(=O)c3cc(NC(=O)CCCCCCCCCCCCCCCCCCCCCCC(=O)Nc4cc(C(=O)Nc5cc(C(=O)Nc6cc(C(=O)NCCC(=N)N)n(C)c6)n(C)c5)n(C)c4)cn3C)cn2C)cc1C(=O)NCCC(=N)N |  |  | >500 µM
CC(C)Nc1nccnc1N1CCN(C(=O)c2cc3cc(F)ccc3[nH]2)CC1 |  |  | <100 µM
CC(C)c1c(Cc2ccccc2)n(COCc2ccc(/C(O)=C/C(=O)C(=O)O)cc2)c(=O)[nH]c1=O |  |  | 0.057 µM
C=C(C)[C@@H]1CC[C@]2(C(=O)O)CC[C@]3(C)[C@H](CC[C@@H]4[C@@]5(C)CC[C@H](O)C(C)(C)[C@@H]5CC[C@]43C)[C@@H]12 |  |  | 7.9 µM
Cc1ccc(C(=O)Nc2cccc(C(=O)Nc3ccc(S(=O)(=O)O)c4cc(S(=O)(=O)O)cc(S(=O)(=O)O)c34)c2)cc1NC(=O)Nc1cc(C(=O)Nc2cccc(C(=O)Nc3ccc(S(=O)(=O)O)c4cc(S(=O)(=O)O)cc(S(=O)(=O)O)c34)c2)ccc1C | IIIB |  | 22 µg/mL
Cn1cc(NC(=O)c2cc(NC(=O)c3cc(NC(=O)CCCCCCC(=O)Nc4cc(C(=O)Nc5cc(C(=O)Nc6cc(C(=O)NCCC(=N)N)n(C)c6)n(C)c5)n(C)c4)cn3C)cn2C)cc1C(=O)NCCC(=N)N |  |  | >400 µM
O=C(Nc1ccc(C(=O)Nc2ccc(P(=O)(O)O)cc2)cc1)Nc1ccc(C(=O)Nc2ccc(P(=O)(O)O)cc2)cc1 | IIIB |  | 100 µg/mL
Cc1occc1C(=S)Nc1ccc(Cl)c(OCC(=O)OC(C)(C)C)c1 |  |  | 9.476 µM
CCNc1cccnc1N1CCN(CCCc2cc(C)c(O)c(C)c2)CC1 |  |  | >100 µM
COC(=O)C(=O)c1csc(NC(=O)NCCc2ccccc2)n1 |  |  | >10 µg/mL
CC(C)OC(=O)N1c2ccc([N+](=O)[O-])cc2C=CC1C#N |  |  | 10.2 µM
NC(=S)c1[nH]c2ccc(Cl)cc2c1Sc1ccccc1 |  |  | 0.003–0.035 µM
CCCOC(=O)N1c2ccc([N+](=O)[O-])cc2C=CC1C#N |  |  | 25.8 µM
Cc1ccc(C(=O)Nc2ccc(S(=O)(=O)O)c3cc(S(=O)(=O)O)cc(S(=O)(=O)O)c23)cc1NC(=O)c1ccc(NC(=O)Nc2ccc(C(=O)Nc3cc(C(=O)Nc4ccc(S(=O)(=O)O)c5cc(S(=O)(=O)O)cc(S(=O)(=O)O)c45)ccc3C)cc2)cc1 | IIIB |  | 100 µg/mL
N#Cc1csc(NC(=O)NCCc2ccccc2)n1 |  |  | <0.1 µg/mL
NNC(=O)CSc1nc(-c2cccs2)c2c(n1)-c1ccccc1CC2 |  |  | 5.6 µM
Nc1nc2c(ncn2[C@H]2CC[C@@H](COP(=O)(O)OP(=O)(O)OP(=O)(O)O)O2)c(=O)[nH]1 |  |  | 0.08 µM
Cc1cn(COCCOP(=O)(O)OP(=O)(O)OP(=O)(O)O)c(=O)[nH]c1=O |  |  | 0.25 µM
C[C@@H](O)CNC(=O)c1[nH]c2ccc(Cl)cc2c1Sc1ccccc1 |  |  | 0.003–0.035 µM
CC(C)Nc1cccnc1N(C)CCN(C)C(=O)c1cc2cc(F)ccc2[nH]1 |  |  | <100 µM
Cc1ccc(C(=O)Nc2cc(C(=O)Nc3cc(C(=O)Nc4ccc(S(=O)(=O)O)c5cc(S(=O)(=O)O)cc(S(=O)(=O)O)c45)ccc3C)ccc2C)cc1NC(=O)Nc1cc(C(=O)Nc2cc(C(=O)Nc3cc(C(=O)Nc4ccc(S(=O)(=O)O)c5cc(S(=O)(=O)O)cc(S(=O)(=O)O)c45)ccc3C)ccc2C)ccc1C | IIIB |  | 28 µg/mL
CCOC(=O)N1c2ccc([N+](=O)[O-])cc2C=CC1C#N |  |  | >50 µM
C=C(CO)[C@@H]1CC[C@]2(C)CC[C@]3(C)[C@H](CC[C@@H]4[C@@]5(C)CC[C@H](O)C(C)(C)[C@@H]5CC[C@]43C)[C@@H]12 |  |  | 4.5 µM
CC(C)Nc1cccnc1N(C)N(C)C(=O)c1cc2ccccc2[nH]1 |  |  | >100 µM
O=C(NCCc1ccccc1)Nc1nc(-c2ccc(Cl)cc2)cs1 |  |  | >10 µg/mL
CN(C)c1nc(N)nc2c1ncn2[C@H]1C[C@H](N=[N+]=[N-])[C@@H](CO)O1 |  | A62V V75I F77L F116Y Q151M | >50 µM
Nc1ccn([C@@H]2CS[C@H](COP(=O)(O)OP(=O)(O)OP(=O)(O)O)O2)c(=O)n1 |  | RT-K65R | 2.2 µM
O=C(NCc1ccco1)c1[nH]c2ccc(Cl)cc2c1Sc1ccccc1 |  |  | 0.003–0.035 µM
N#CC1C=Cc2ccccc2N1S(=O)(=O)S(=O)(=O)c1ccccc1 |  |  | >50 µM
CCc1cc(CCc2nc3ccccc3o2)c(=O)[nH]c1C |  | RT-K103N Y188C | >39 µM
O=C1c2c(Cl)c(Cl)c(Cl)c(Cl)c2C(=O)N1c1nc(-c2cccs2)c2c(n1)-c1ccccc1CC2 |  |  | 2.11 µM
Cn1cc(NC(=O)c2cc(NC(=O)c3cc(NC(=O)c4cc(C(=O)Nc5cc(C(=O)Nc6cc(C(=O)Nc7cc(C(=O)NCCC(=N)N)n(C)c7)n(C)c6)n(C)c5)cc(C(=O)Nc5cc(C(=O)Nc6cc(C(=O)Nc7cc(C(=O)NCCC(=N)N)n(C)c7)n(C)c6)n(C)c5)c4)cn3C)cn2C)cc1C(=O)NCCC(=N)N |  |  | ~150 µM
CCOC(=O)N1c2cc3c(cc2C=CC1C#N)OCO3 |  |  | >50 µM
Cc1cc(C(=O)Nc2ccc(S(=O)(=O)O)c3cc(S(=O)(=O)O)cc(S(=O)(=O)O)c23)ccc1NC(=O)Nc1ccc(C(=O)Nc2ccc(S(=O)(=O)O)c3cc(S(=O)(=O)O)cc(S(=O)(=O)O)c23)cc1C | IIIB |  | 48 µg/mL
C[C@@H]1Cc2c(-c3cc(-c4cc(-c5c(O)cc(O)c6c5C[C@@H](C)N[C@@H]6C)c5ccccc5c4O)c(O)c4ccccc34)c(O)cc(O)c2[C@@H](C)N1 |  |  | 62 µM
COc1cccc(S(=O)(=O)n2c(=O)[nH]c3ccc(Cl)cc32)c1 |  | Wild type | 0.05 µM
Nc1nc2c(ncn2COCCOP(=O)(O)OP(=O)(O)OP(=O)(O)O)c(=O)[nH]1 |  |  | 0.34 µM
CCOCn1c(Sc2ccccc2)c(CC)c(=O)[nH]c1=O |  | RT-Y181C | 3 µM
O=C(NCc1cccnc1)c1[nH]c2ccc(Cl)cc2c1S(=O)(=O)c1ccccc1 |  |  | 0.003–0.035 µM
CC1(C)C2CC=C3C(=CC[C@@]4(C)C5C[C@](C)(CO)CC[C@]5(C)CC[C@]34C)[C@@]2(C)CC[C@H]1O |  |  | 11 µM
CCCOC(=O)N1c2ccc(OC)cc2C=CC1C#N |  |  | 8.1 µM
O=C(Nc1ccc2c(O)c(N=Nc3ccc(C(=O)O)cc3)c(S(=O)(=O)O)cc2c1)Nc1ccc2c(O)c(N=Nc3ccc(C(=O)O)cc3)c(S(=O)(=O)O)cc2c1 |  |  | 0.316 µM
O=C(Nc1cccc(-c2ccc(C(=O)Nc3ccc(S(=O)(=O)O)c4cc(S(=O)(=O)O)cc(S(=O)(=O)O)c34)cc2)c1)Nc1cccc(-c2ccc(C(=O)Nc3ccc(S(=O)(=O)O)c4cc(S(=O)(=O)O)cc(S(=O)(=O)O)c34)cc2)c1 | IIIB |  | 52 µg/mL
Cn1cc(C(=O)Nc2cc(C(=O)NCCCC(=O)Nc3cc(C(=O)Nc4cc(C(=O)NCCC(=N)N)n(C)c4)n(C)c3)cn2C)cc1NC(=O)CN=C(N)N |  |  | >200 µM
O=C(NCCc1ccccc1)Nc1nc2ccc(Cl)cc2s1 |  |  | >10 µg/mL
CC(C)(C)Nc1ccnnc1N1CCN(C(=O)c2cc3cc(O)ccc3[nH]2)CC1 |  |  | <100 µM
CC(C)Nc1cccnc1N(C)C1CCC(N(C)C(=O)c2cc3ccccc3[nH]2)CC1 |  |  | >100 µM
Cc1cn([C@@H]2O[C@H](COP(=O)(O)OP(=O)(O)OP(=O)(O)O)[C@@H](O)[C@@H]2O)c(=O)[nH]c1=O |  |  | 4.4 µM
O=C(CSc1nc(-c2cccs2)c2c(n1)-c1ccccc1CC2)N/N=C/c1ccc(F)cc1 |  |  | 3.4 µM
Nc1nc2c(ncn2[C@H]2CC[C@@H](COP(=O)(O)OP(=O)(O)OP(=O)(O)O)O2)c(=O)[nH]1 |  |  | 0.05 µM
O=C(NCCc1cnc[nH]1)c1[nH]c2ccc(Cl)cc2c1S(=O)(=O)c1ccccc1 |  |  | 0.003–0.035 µM
S=c1nc2c(c(-c3cccs3)[nH]1)CCc1ccccc1-2 |  |  | 8.1 µM
CC(C)=CCC/C(C)=C/CC/C(C)=C/CC/C(C)=C/CC/C(C)=C/CC/C(C)=C/Cc1cc(O)ccc1O |  |  | 4.5 µM
Cn1cc(C(=O)Nc2cc(C(=O)NCC(=O)Nc3cc(C(=O)Nc4cc(C(=O)NCCC(=N)N)n(C)c4)n(C)c3)cn2C)cc1NC(=O)CN=C(N)N |  |  | ~150 µM
Cc1occc1C(=S)Nc1ccc(Cl)c(SCC(=O)OC(C)(C)C)c1 |  |  | 1.658 µM
O=C1/C(=C/c2cccs2)CCc2ccccc21 |  |  | 6.1 µM
CC(C)Nc1cccnc1N1CCCN(C(=O)c2cc3ccccc3[nH]2)CC1 |  |  | <100 µM

The first 8 rows once more:

COc1ccc2c(c1)C=CC(C#N)N2C(=O)OCC(C)C ; mutations: RT-P236L ; result: 4.7 µM
CC(C)Nc1cccnc1N1CCN(C(=O)c2cc3ccc(F)cc3[nH]2)CC1 ; result: <100 µM
CC(C)=CCOc1cc(NC(=S)c2ccoc2C)ccc1Cl ; mutations: RT-W229F ; result: 0.035 µM
O=C(O)CSc1nc(-c2cccs2)c2c(n1)-c1ccccc1CC2 ; result: 17.4 µM
CC(C)Nc1cccnc1OCCN(C)C(=O)c1cc2ccccc2[nH]1 ; result: <100 µM
Cc1ccc(C(=O)Nc2ccc(S(=O)(=O)O)c3cc(S(=O)(=O)O)cc(S(=O)(=O)O)c23)cc1NC(=O)Nc1cc(C(=O)Nc2ccc(S(=O)(=O)O)c3cc(S(=O)(=O)O)cc(S(=O)(=O)O)c23)ccc1C ; strain: IIIB ; result: 45 µg/mL
CCNc1ccccc1N1CCN(C(=O)c2cc3cc(OC)ccc3[nH]2)CC1 ; result: <100 µM
COC(=O)N1c2ccc(OC)cc2C=CC1C#N ; result: >50 µM

ICn: concentration for n% inhibition. An empty or dashed field is not shown. Rows are shuffled and stem from different studies.